{"source": "patent EP1369120B1", "about": "(priority 2002, dated 2003)", "tested_on": "HCV sub-genomic replicons (Ava.5)", "format": "cell-based, hepatitis C virus", "conditions": "human, huh-7 hcv replicon cells", "note": "“And” between values parts separate entries of the source, which are not always exact repeats. Equal entries are not always repeated. Which two values form the index is not stated here.", "data": [{"substance": "arsenic trioxide [As2O3]", "values": [{"measurement": "Therapeutic Index", "result": "8.5/0.26 = 32.7 and 4.8/0.19 = 25.3 and 8.5/0.27 = 31.5 and 4.8/0.16 = 30.0"}]}]}
